Values quoted from earlier work as cited in PMC3315515, “Identification of Novel Mt-Guab2 Inhibitor Series Active against M. tuberculosis” (PLoS ONE, 2012).

Test system: vero cell
Details: Table 1; SI = EC50/IC90, vero cell cytotoxicity to anti-TB activity; ref [37]; cited from earlier work

| SMILES | SI |
| --- | --- |
| COc1ccc(OC(C)C(=O)Nc2ccc(I)cc2)cc1 (stereo not shown) [compound 7759844] | > 23.70 |

Same assay, conditions: Table 2, values with footnote a; ref Reynolds et al., 2011; cited from earlier work

| SMILES | SI |
| --- | --- |
| O=C(Nc1nnc(-c2cccs2)o1)c1nc2ccccc2s1 [F1374-0978] | 4.6 ^a |
| Cc1ccc(-c2nnc(NC(=O)c3nc4ccccc4s3)o2)c(C)c1 [F2518-0183] | 17 ^a |

Same assay, conditions: Table 2, values without footnote a; SI = EC50/IC90; previous screens ref [35]–[37]; cited from earlier work

| SMILES | SI |
| --- | --- |
| COc1ccccc1-c1nnc(NC(=O)c2sc3ccccc3c2Cl)o1 [F1374-0253] | >7.55 |
| Cc1ccc(C)c(-c2nnc(NC(=O)C3COc4ccccc4O3)o2)c1 (stereo not shown) [F2518-0401] | 12.51 |
| O=C(Nc1nnc(-c2ccc(Cl)s2)o1)c1nc2ccccc2s1 [F1374-1083] | >8.31 |
| Cc1ccc(-c2nnc(NC(=O)COc3ccccc3)o2)c(C)c1 [F2518-0274] | 5.11 |
| O=C(Nc1nnc(-c2ccccc2)o1)c1cc(-c2cccs2)nc2ccccc12 [F1374-0885] | 6.55 |
| Cc1ccc(C)c(-c2nnc(NC(=O)COc3ccccc3)o2)c1 [F2518-0418] | 8.20 |
| O=C(Nc1nnc(-c2ccc(Br)cc2)o1)c1sc2ccccc2c1Cl [F2518-0484] | >5.97 |
| O=C(Nc1nnc(-c2ccccc2Cl)o1)c1nc2ccccc2s1 [F1374-0033] | 7.89 |
| O=C(CS(=O)(=O)c1ccccc1)Nc1nc(-c2ccc3c(c2)CCCC3)cs1 [F2536-1573] | 6.68 |
| COc1cc2ccccc2cc1C(=O)Nc1nnc(-c2ccc(F)cc2)o1 [F1374-0205] | 3.43 |
| CCOc1cc(-c2nnc(NC(=O)c3cc4ccccc4cc3OC)o2)cc(OCC)c1OCC [F2517-0198] | 3.84 |
| CC(C)c1ccc(OCC(=O)Nc2nccs2)cc1 [F1685-0077] | >5.81 |
| COc1cc2ccccc2cc1C(=O)Nc1nnc(-c2cc(C)ccc2C)o1 [F2518-0413] | 6.67 |
